From US11634477 (dated 2023)

Target: SARS-CoV-2 RBD (SARS-CoV-2)
Test: ELISA

B1: C127 (antibody, V domains shown)
VH: QVQLVQSGAEVKKPGASVKVSCKASGYTFTGYYMHWVRQAPGQGLEWMGWINPNSGGTNYAQKFQGRVTMTRDTSISTAYMELSRLRSDDTAVYYCATAHPRRIQGVFFLGPGVWGQGTTVTVSS
VL: not shown
EC50: 2.62 ng/mL
